# According to publication PMC5584973, “Characterization of novel bangle lectin from Photorhabdus asymbiotica with dual sugar-binding specificity and its effect on host immunity” (PLoS Pathogens, 2017):
# What was measured:
# [1] = target: T1, PHL (Photorhabdus asymbiotica, UniProt C7BLE4); experiment: Glycan array screening of DyLight 488-labelled PHL; conditions: PHL 200 μg/ml
# Procedure: Purified PHL lectin samples were labelled with DyLight 488 NHS Ester (Thermo Scientific) according to the manufacturer’s instructions and dialysed against PBS buffer (137 mM NaCl, 2.7 mM KCl, 8 mM Na2HPO4, 1.47 mM KH2PO4, pH 7.4). The labelled protein was used for glycan array screening following the manufacturer’s standard procedure (Semiotik, Moscow, Russia). To determine the lectin specificity, the screening of the printed glycan microarray chip (slide number 10085636, with ~400 mammalian glycans and ~200 bacterial polysaccharides, all in 6 replicates) was performed with a PHL concentration of 200 μg/ml in PBS buffer. The relative binding of PHL was calculated as an average fluorescence from six replicates of each saccharide present in the array.
# [2] = target: T1, PHL; experiment: SPR binding of PHL to immobilized sugars; conditions: read-out: apparent KD, immobilized sugar
# Procedure: SPR experiments were performed in a BIAcore T200 instrument (GE Healthcare) at 25°C. The carboxymethyldextran surface of a CM5 (GE Healthcare, UK) sensor chip was activated with N-ethyl-N-(3-dimethylaminopropyl)carbodiimide/N-hydroxysuccinimide solution according to the manufacturer’s standard protocol using HBS buffer (10 mM HEPES, 150 mM NaCl, 0.05% Tween 20, pH 7.5). Streptavidin was immobilized into all four channels to a final response of 6,300–7,500 RU. Subsequently, the sensor surface was blocked with 1 M ethanolamine. Biotinylated α/β-D-mannoside, α/β-D-galactoside and α-L-fucoside were injected into three measuring channels (final response ~ 140 RU) and pure biotin in the blank channel at a flow rate of 5 μl/min. In the experimental setup, measurements were carried out simultaneously in all four measuring channels using buffer A (300 mM NaCl, 20 mM Tris/HCl, pH 7.5) supplemented with 0.05% Tween20 at a flow rate of 20 μl/min. The interaction of PHL with immobilized sugars was measured over the concentration range 200–0.16 μg/ml.
smiles,measurement,setting,value
C[C@@H]1O[C@@H](O)[C@@H](O)[C@H](O)[C@@H]1O,relative binding / preference on glycan array,[1],highest relative binding
same,Kd,[2],1.4 µM
